Measured values published in patent publication US10975126B1 (priority 2020, dated 2021).

System: MERS-CoV
Assay: Plaque reduction assay
Type: cell-based, MERS-CoV (CoV/KOR/KNIH/002_05_2015) in Vero cells
Settings: 10 μM peptide mixed with MERS-CoV for 30 min; Vero cells; counted four days after infection

Structure (SMILES) | # Plaques
CC[C@H](C)[C@H](NC(=O)[C@H](Cc1ccc(O)cc1)NC(=O)[C@H](CO)NC(=O)[C@H](CCC(=O)O)NC(=O)[C@H](CC(N)=O)NC(=O)[C@H](CC(C)C)NC(=O)[C@H](C)NC(=O)[C@H](CCCCN)NC(=O)[C@@H](NC(=O)[C@@H](NC(=O)[C@H](CCC(=O)O)NC(=O)[C@H](CCC(=O)O)NC(=O)[C@H](CC(C)C)NC(=O)[C@H](CO)NC(=O)[C@H](CCCNC(=N)N)NC(=O)[C@H](CCSC)NC(=O)[C@H](CCC(=O)O)NC(=O)[C@H](Cc1ccc(O)cc1)NC(=O)[C@H](CCC(=O)O)NC(=O)[C@H](CC(C)C)NC(=O)[C@H](CC(=O)O)NC(=O)[C@H](CC(C)C)NC(=O)[C@H](CC(C)C)NC(=O)[C@@H](NC(=O)[C@@H](NC(=O)[C@H](CC(N)=O)NC(=O)[C@@H](NC(=O)[C@H](CCC(N)=O)NC(=O)[C@@H](NC(=O)[C@H](CC(C)C)NC(=O)[C@@H](N)CO)[C@@H](C)O)[C@@H](C)CC)[C@@H](C)O)[C@@H](C)O)C(C)C)C(C)C)C(=O)N[C@@H](CC(=O)O)C(=O)N[C@@H](CC(C)C)C(=O)N[C@@H](CCCCN)C(=O)N[C@@H](CCC(=O)O)C(=O)N[C@@H](CC(C)C)C(=O)O | 59
CC[C@H](C)[C@H](NC(=O)[C@H](Cc1ccc(O)cc1)NC(=O)[C@H](CO)NC(=O)[C@H](CCC(=O)O)NC(=O)[C@H](CC(N)=O)NC(=O)[C@H](CC(C)C)NC(=O)[C@H](C)NC(=O)[C@H](CCCCN)NC(=O)[C@@H](NC(=O)[C@@H](NC(=O)[C@H](CCC(N)=O)NC(=O)[C@H](CCC(N)=O)NC(=O)[C@H](CC(C)C)NC(=O)[C@H](CO)NC(=O)[C@H](CCCCN)NC(=O)[C@H](CCSC)NC(=O)[C@H](CCC(=O)O)NC(=O)[C@H](Cc1ccc(O)cc1)NC(=O)[C@@H](NC(=O)[C@H](CC(C)C)NC(=O)[C@H](CC(=O)O)NC(=O)[C@H](CC(C)C)NC(=O)[C@H](CC(C)C)NC(=O)[C@@H](NC(=O)[C@@H](NC(=O)[C@H](CC(N)=O)NC(=O)[C@@H](NC(=O)[C@H](CCC(N)=O)NC(=O)[C@@H](NC(=O)[C@H](CC(C)C)NC(=O)[C@@H](N)CO)[C@@H](C)O)[C@@H](C)CC)[C@@H](C)O)[C@@H](C)O)[C@@H](C)O)C(C)C)C(C)C)C(=O)N[C@@H](CC(=O)O)C(=O)N[C@@H](CC(C)C)C(=O)N[C@@H](CCCCN)C(=O)N[C@@H](CCC(=O)O)C(=O)N[C@@H](CC(C)C)C(=O)O | 55
CC[C@H](C)[C@H](NC(=O)[C@H](Cc1ccc(O)cc1)NC(=O)[C@H](CO)NC(=O)[C@H](CCC(=O)O)NC(=O)[C@H](CC(N)=O)NC(=O)[C@H](CC(C)C)NC(=O)[C@H](C)NC(=O)[C@H](CCCCN)NC(=O)[C@@H](NC(=O)[C@@H](NC(=O)[C@H](CCC(N)=O)NC(=O)[C@H](CCC(N)=O)NC(=O)[C@H](CC(C)C)NC(=O)[C@H](CO)NC(=O)[C@H](CC(C)C)NC(=O)[C@H](CCSC)NC(=O)[C@H](CCC(=O)O)NC(=O)[C@H](Cc1ccc(O)cc1)NC(=O)[C@@H](NC(=O)[C@H](CC(C)C)NC(=O)[C@H](CC(=O)O)NC(=O)[C@H](CC(C)C)NC(=O)[C@H](CC(C)C)NC(=O)[C@@H](NC(=O)[C@@H](NC(=O)[C@H](CC(N)=O)NC(=O)[C@@H](NC(=O)[C@H](CCC(N)=O)NC(=O)[C@@H](NC(=O)[C@H](CC(C)C)NC(=O)[C@@H](N)CO)[C@@H](C)O)[C@@H](C)CC)[C@@H](C)O)[C@@H](C)O)[C@@H](C)O)C(C)C)C(C)C)C(=O)N[C@@H](CC(=O)O)C(=O)N[C@@H](CC(C)C)C(=O)N[C@@H](CCCCN)C(=O)N[C@@H](CCC(=O)O)C(=O)N[C@@H](CC(C)C)C(=O)O | 55
CC[C@H](C)[C@H](NC(=O)[C@H](Cc1ccc(O)cc1)NC(=O)[C@H](CO)NC(=O)[C@H](CCC(=O)O)NC(=O)[C@H](CC(N)=O)NC(=O)[C@H](CC(C)C)NC(=O)[C@H](C)NC(=O)[C@H](CCCCN)NC(=O)[C@@H](NC(=O)[C@@H](NC(=O)[C@H](CCC(N)=O)NC(=O)[C@H](CCC(N)=O)NC(=O)[C@H](CC(C)C)NC(=O)[C@H](CO)NC(=O)[C@H](CC(C)C)NC(=O)[C@H](CCSC)NC(=O)[C@H](CCC(=O)O)NC(=O)[C@H](Cc1ccc(O)cc1)NC(=O)[C@@H](NC(=O)[C@H](CC(C)C)NC(=O)[C@H](CC(=O)O)NC(=O)[C@H](CC(C)C)NC(=O)[C@H](CC(C)C)NC(=O)[C@@H](NC(=O)[C@@H](NC(=O)[C@H](CC(N)=O)NC(=O)[C@@H](NC(=O)[C@H](CCC(N)=O)NC(=O)[C@@H](NC(=O)[C@H](CC(C)C)NC(=O)[C@@H](N)CO)[C@@H](C)O)[C@@H](C)CC)[C@@H](C)O)[C@@H](C)O)[C@@H](C)O)C(C)C)C(C)C)C(=O)N[C@@H](CC(=O)O)C(=O)N[C@@H](CC(C)C)C(=O)N[C@@H](CCCCN)C(=O)N[C@@H](Cc1c[nH]cn1)C(=O)N[C@@H](CC(C)C)C(=O)O | 36
CC[C@H](C)[C@H](NC(=O)[C@H](Cc1ccc(O)cc1)NC(=O)[C@H](Cc1ccc(O)cc1)NC(=O)[C@H](CCC(=O)O)NC(=O)[C@H](CC(N)=O)NC(=O)[C@H](CC(C)C)NC(=O)[C@H](C)NC(=O)[C@H](CCCCN)NC(=O)[C@H](CCSC)NC(=O)[C@@H](NC(=O)[C@H](CCC(N)=O)NC(=O)[C@H](CCC(N)=O)NC(=O)[C@H](CC(C)C)NC(=O)[C@H](CO)NC(=O)[C@H](CCC(=O)O)NC(=O)[C@H](CCSC)NC(=O)[C@H](CCC(=O)O)NC(=O)[C@H](Cc1ccc(O)cc1)NC(=O)[C@@H](NC(=O)[C@H](CC(C)C)NC(=O)[C@H](CC(=O)O)NC(=O)[C@H](CC(C)C)NC(=O)[C@H](CC(C)C)NC(=O)[C@@H](NC(=O)[C@H](Cc1c[nH]c2ccccc12)NC(=O)[C@H](CC(N)=O)NC(=O)[C@@H](NC(=O)[C@H](CCC(N)=O)NC(=O)[C@@H](NC(=O)[C@H](CC(C)C)NC(=O)[C@@H](N)CO)[C@@H](C)O)[C@@H](C)CC)[C@@H](C)O)[C@@H](C)O)C(C)C)C(=O)N[C@@H](CC(=O)O)C(=O)N[C@@H](CC(C)C)C(=O)N[C@@H](CCCCN)C(=O)N[C@@H](Cc1c[nH]cn1)C(=O)N[C@@H](CC(C)C)C(=O)O | 55
CC[C@H](C)[C@H](NC(=O)[C@H](Cc1ccc(O)cc1)NC(=O)[C@H](CO)NC(=O)[C@H](CCC(=O)O)NC(=O)[C@H](CC(N)=O)NC(=O)[C@H](CC(C)C)NC(=O)[C@H](C)NC(=O)[C@H](CCCCN)NC(=O)[C@@H](NC(=O)[C@@H](NC(=O)[C@H](CCC(N)=O)NC(=O)[C@H](CCC(N)=O)NC(=O)[C@H](CC(C)C)NC(=O)[C@H](CO)NC(=O)[C@H](CC(C)C)NC(=O)[C@H](CCSC)NC(=O)[C@H](CCC(=O)O)NC(=O)[C@H](Cc1ccc(O)cc1)NC(=O)[C@H](CCC(=O)O)NC(=O)[C@H](CC(C)C)NC(=O)[C@H](CC(=O)O)NC(=O)[C@H](CC(C)C)NC(=O)[C@H](CC(C)C)NC(=O)[C@@H](NC(=O)[C@@H](NC(=O)[C@H](CC(N)=O)NC(=O)[C@@H](NC(=O)[C@H](CCC(N)=O)NC(=O)[C@@H](NC(=O)[C@H](CC(C)C)NC(=O)[C@@H](N)CO)[C@@H](C)O)[C@@H](C)CC)[C@@H](C)O)[C@@H](C)O)C(C)C)C(C)C)C(=O)N[C@@H](CC(=O)O)C(=O)N[C@@H](CC(C)C)C(=O)N[C@@H](CCCCN)C(=O)N[C@@H](CCC(=O)O)C(=O)N[C@@H](CC(C)C)C(=O)O | 92
CC[C@H](C)[C@H](NC(=O)[C@H](Cc1ccc(O)cc1)NC(=O)[C@H](Cc1ccc(O)cc1)NC(=O)[C@H](CCC(=O)O)NC(=O)[C@H](CC(N)=O)NC(=O)[C@H](CC(C)C)NC(=O)[C@H](C)NC(=O)[C@H](CCCCN)NC(=O)[C@@H](NC(=O)[C@@H](NC(=O)[C@H](CCC(N)=O)NC(=O)[C@H](CCC(N)=O)NC(=O)[C@H](CC(C)C)NC(=O)[C@H](CO)NC(=O)[C@H](CCC(=O)O)NC(=O)[C@H](CCSC)NC(=O)[C@H](CCC(=O)O)NC(=O)[C@H](Cc1ccc(O)cc1)NC(=O)[C@@H](NC(=O)[C@H](CC(C)C)NC(=O)[C@H](CC(=O)O)NC(=O)[C@H](CC(C)C)NC(=O)[C@H](CC(C)C)NC(=O)[C@@H](NC(=O)[C@H](Cc1c[nH]c2ccccc12)NC(=O)[C@H](CC(N)=O)NC(=O)[C@@H](NC(=O)[C@H](CCC(N)=O)NC(=O)[C@@H](NC(=O)[C@H](CC(C)C)NC(=O)[C@@H](N)CO)[C@@H](C)O)[C@@H](C)CC)[C@@H](C)O)[C@@H](C)O)C(C)C)C(C)C)C(=O)N[C@@H](CC(=O)O)C(=O)N[C@@H](CC(C)C)C(=O)N[C@@H](CCCCN)C(=O)N[C@@H](CCC(=O)O)C(=O)N[C@@H](CC(C)C)C(=O)O [Peptide 5] | 31
CC[C@H](C)[C@H](NC(=O)[C@H](Cc1ccc(O)cc1)NC(=O)[C@H](CO)NC(=O)[C@H](CCC(=O)O)NC(=O)[C@H](CC(N)=O)NC(=O)[C@H](CC(C)C)NC(=O)[C@H](C)NC(=O)[C@H](CCCCN)NC(=O)[C@@H](NC(=O)[C@@H](NC(=O)[C@H](CCC(N)=O)NC(=O)[C@H](CCC(N)=O)NC(=O)[C@H](CC(C)C)NC(=O)[C@H](CO)NC(=O)[C@H](CCCNC(=N)N)NC(=O)[C@H](CCSC)NC(=O)[C@H](CCC(=O)O)NC(=O)[C@H](Cc1ccc(O)cc1)NC(=O)[C@H](CCC(=O)O)NC(=O)[C@H](CC(C)C)NC(=O)[C@H](CC(=O)O)NC(=O)[C@H](CC(C)C)NC(=O)[C@H](CC(C)C)NC(=O)[C@@H](NC(=O)[C@@H](NC(=O)[C@H](CC(N)=O)NC(=O)[C@@H](NC(=O)[C@H](CCC(N)=O)NC(=O)[C@@H](NC(=O)[C@H](CC(C)C)NC(=O)[C@@H](N)CO)[C@@H](C)O)[C@@H](C)CC)[C@@H](C)O)[C@@H](C)O)C(C)C)C(C)C)C(=O)N[C@@H](CC(=O)O)C(=O)N[C@@H](CC(C)C)C(=O)N[C@@H](CCCCN)C(=O)N[C@@H](CCC(=O)O)C(=O)N[C@@H](CC(C)C)C(=O)O | 81
CC[C@H](C)[C@H](NC(=O)[C@H](Cc1ccc(O)cc1)NC(=O)[C@H](CO)NC(=O)[C@H](CCC(=O)O)NC(=O)[C@H](CC(N)=O)NC(=O)[C@H](CC(C)C)NC(=O)[C@H](CCCCN)NC(=O)[C@H](CCCCN)NC(=O)[C@@H](NC(=O)[C@@H](NC(=O)[C@H](CCC(=O)O)NC(=O)[C@H](CCC(=O)O)NC(=O)[C@H](CC(C)C)NC(=O)[C@H](CO)NC(=O)[C@H](CCCNC(=N)N)NC(=O)[C@H](CCSC)NC(=O)[C@H](CCC(=O)O)NC(=O)[C@H](Cc1ccc(O)cc1)NC(=O)[C@H](CCC(=O)O)NC(=O)[C@H](CC(C)C)NC(=O)[C@H](CC(=O)O)NC(=O)[C@H](CC(C)C)NC(=O)[C@H](CC(C)C)NC(=O)[C@@H](NC(=O)[C@@H](NC(=O)[C@H](CC(N)=O)NC(=O)[C@@H](NC(=O)[C@H](CCC(N)=O)NC(=O)[C@@H](NC(=O)[C@H](CC(C)C)NC(=O)[C@@H](N)CO)[C@@H](C)O)[C@@H](C)CC)[C@@H](C)O)[C@@H](C)O)C(C)C)C(C)C)C(=O)N[C@@H](CC(=O)O)C(=O)N[C@@H](CC(C)C)C(=O)N[C@@H](CCCCN)C(=O)N[C@@H](CCC(=O)O)C(=O)N[C@@H](CC(C)C)C(=O)O | 46
